The values that follow come from paper PMC3405095.

The target of the series is PhoB (PhoBKP) (Klebsiella pneumoniae NTUH-K2044) (UniProt A0ACD7U063). Kind of series: EMSA. To be noted: 50-500 nM PhoB, 1 ug poly(dI-dC), competed by 10-fold excess unlabeled kpnO promoter, 10 mM Tris-HCl pH 8.0, 2 mM EDTA, 0.5 mM DTT, 50 mM NaCl, 10% glycerol, 5% native PAGE, temperature not stated, recombinant protein, residues 1-237, protein details: N-terminal His6 (pET-28c), label: 32P 5' end label, probe letters rebuilt from the primers and the genome. Background: Mobility shift assays separate free from complexed probe on a gel.

On to “GGCCTAATTGATTGATTAATAGTCGTTAGGGAATCATTAGCCGTAGCACAGATAAATTAAAGTTGTGTAAAGAAGGGTAAAAAAAACCGGATGCGAGGCATCCGGTTGAAATAGGGGTAAACAGACATTCAGAACTGAATGACGGTAATAAATAAAGTTAATGATGATAGCGACTCTTATTTTAGCCACCAATGAACATTTTGTTTTACCATTCAGTGCTATAGATATGTTGTCGTCTATCACTTTGATTATAAAAGGTTAAATATTTTTTTTGATGATTAGTGCGTATTTCCCTGACCATTTTGCGGTGAAAAAAGTTCCGCTGAATTTACAAATTGAAACATCTTGTGGGAACTTTGAAACATCTTAGAAGTTTTAGTATCATATTCTTGTTGGATTATTCTGCATTTTGCAGCACAATGAAATAGCCGACTGATTAGAAGGGTAATCAGTAAGCAGTGGCATAATAAAAGGCATATAACAAACAGAGGGTTAATAAC (double strand) [kpnO promoter]”, for which the binding result is given as “binds”.
